We go through 1 sequence from article PMC8293625, “HLA class-I-peptide stability mediates CD8^+ T cell immunodominance hierarchies and facilitates HLA-associated immune control of HIV” (Cell Reports, 2021).

Protein sequences, listed by entry. Tags and fused reporters are not part of them. Residues count along the entry.
UniProt P04439, 25-365 limits assumed: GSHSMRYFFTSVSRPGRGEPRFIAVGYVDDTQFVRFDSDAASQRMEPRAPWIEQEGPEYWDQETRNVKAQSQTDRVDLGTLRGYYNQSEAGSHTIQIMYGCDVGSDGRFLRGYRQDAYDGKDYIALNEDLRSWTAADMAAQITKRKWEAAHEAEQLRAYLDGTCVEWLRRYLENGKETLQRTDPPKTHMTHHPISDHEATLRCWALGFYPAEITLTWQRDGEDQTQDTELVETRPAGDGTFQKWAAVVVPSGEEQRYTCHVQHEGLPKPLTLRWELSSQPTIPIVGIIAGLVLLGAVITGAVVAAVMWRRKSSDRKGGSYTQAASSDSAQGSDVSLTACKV

For this assay, the target named is HLA-A*0301 (Homo sapiens, UniProt P04439). Nature of the assay: Cell-based HLA class I-peptide concentration-based stability assay (TAP-deficient mono-allelic 721.221 cells). Conditions: HLA A*03 mono-allelic TAP-deficient 721.221 cells, relative anti-HLA MFI.

As to TVYYGVPVWK [TK10], where the note is “peptide 10 uM”, the “Relative HLA MFI (10 uM)” value is 0. For the same sequence, where the note is “peptide 100 uM”, the “Relative HLA MFI (100 uM)” value is 0.03264.
